Values from PubChem BioAssay AID624099 (ICCB-Longwood, 2012)
Here is an unselected part of about 21,000 reagents tested. 497 of them (2.4%) were called active. 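Higher z means weaker E2 silencing; only reporter increases were scored, and knock-downs that hurt cell survival may mask genuine repressor factors.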 Reagents against one gene are numbered here.

- Test: 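Human genes that papillomavirus E2 requires to repress the HPV18 LCR promoter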 (primary screen)
- System: human C33A cervical carcinoma cells (HPV-negative) stably expressing BPV1 E2 and an HPV18 LCR luciferase reporter
- Reagent: siRNA pool against human genes, 40 nM
- Time to read-out: 72 h
- Measurement: 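HPV18 LCR reporter light per well, converted to plate-wise z-scores that exclude control wells, and averaged over triplicate plates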
- Direction: mean z-score and z-score: higher = stronger reporter signal, weaker E2 silencing
- Active means: 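Mean z ≥ 2 together with z ≥ 2 in two or more of the three replicates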

gene	pool no.	mean z-score	z-score, replicate A	z-score, replicate B	z-score, replicate C	activity call
EPYC (epiphycan)	1	0.9	1.16	0.56	1	inactive
FN3K (fructosamine 3 kinase)	1	0.02	0.25	-0.17	-0.04	inactive
LINC00494 (long independently transcribed non-coding RNA 494)	1	0.41	0.32	0.48	0.42	inactive
GDF7 (growth differentiation factor 7)	1	1.36	1.49	1.31	1.27	inactive
HSPH1 (heat shock protein family H (Hsp110) member 1)	1	-1.14	-0.9	-1.28	-1.24	inactive
PPP1R2B (PPP1R2 family member B)	1	-0.07	-0.06	-0.48	0.33	inactive
SLC4A1	1	-0.95	-0.97	-0.83	-1.05	inactive
APOL3 (apolipoprotein L3)	1	-0.09	0.14	-0.18	-0.21	inactive
LAMTOR4 (late endosomal/lysosomal adaptor, MAPK and MTOR activator 4)	1	-0.35	-0.1	-0.35	-0.61	inactive
LAMTOR4 (late endosomal/lysosomal adaptor, MAPK and MTOR activator 4)	2	-1.13	-1.14	-1.32	-0.93	inactive
SAMD12 (sterile alpha motif domain containing 12)	1	-0.63	-0.19	-0.98	-0.72	inactive
PITPNC1 (phosphatidylinositol transfer protein cytoplasmic 1)	1	-0.83	-1.04	-0.91	-0.55	inactive
ARC (activity regulated cytoskeleton associated protein)	1	0.07	0.2	-0.37	0.39	inactive
RPSAP27 (ribosomal protein SA pseudogene 27)	1	-0.16	-0.27	-0.21	0.01	inactive
LMX1B (LIM homeobox transcription factor 1 beta)	1	-0.46	-0.52	-0.53	-0.32	inactive
LSM12 (LSM12 homolog)	1	0.51	0.79	0.61	0.14	inactive
LOC154323 (retired record)	1	-0.45	-0.61	-0.27	-0.46	inactive
SEPTIN4 (septin 4)	1	0.6	0.58	0.54	0.68	inactive
SEPTIN4 (septin 4)	2	1.1	0.92	1.21	1.16	inactive
LOC284623 (retired record)	1	-0.11	0.18	0.01	-0.52	inactive
CAMP (cathelicidin antimicrobial peptide)	1	1	0.76	1.09	1.15	inactive
ZSCAN32 (zinc finger and SCAN domain containing 32)	1	-1.42	-1.12	-1.12	-2.03	inactive
LCE3C (late cornified envelope 3C)	1	-1.75	-1.54	-1.7	-2	inactive
BICRA	1	-1.56	-1.53	-1.39	-1.76	inactive
PROZ (protein Z, vitamin K dependent plasma glycoprotein)	1	0.25	0.19	0.33	0.23	inactive
PHACTR4 (phosphatase and actin regulator 4)	1	-1.25	-1.32	-1.21	-1.21	inactive
EXOSC3 (exosome component 3)	1	0.63	0.62	0.67	0.6	inactive
DCX (doublecortin)	1	-0.59	-0.39	-0.75	-0.62	inactive
LOC388170 (retired record)	1	0.26	0.11	-0.42	1.08	inactive
SRSF8 (serine and arginine rich splicing factor 8)	1	0.36	0.32	0.67	0.09	inactive
TNFRSF4 (TNF receptor superfamily member 4)	1	-0.89	-1	-0.93	-0.75	inactive
SEMA6D (semaphorin 6D)	1	0	-0.34	0.28	0.06	inactive
EXTL2 (exostosin like glycosyltransferase 2)	1	-0.74	-0.83	-1.19	-0.21	inactive
WFDC5 (WAP four-disulfide core domain 5)	1	0	-0.05	0.19	-0.14	inactive
RASSF1 (Ras association domain family member 1)	1	-1.42	-1.72	-1.11	-1.44	inactive
FAM99A (family with sequence similarity 99 member A)	1	0.32	0.15	0.32	0.49	inactive
FAT4 (FAT atypical cadherin 4)	1	0.78	0.88	1.13	0.34	inactive
FAT4 (FAT atypical cadherin 4)	2	0.15	0.27	-0.04	0.21	inactive
CEMIP (cell migration inducing hyaluronidase 1)	1	-0.21	-0.35	-0.06	-0.23	inactive
ANKRD29 (ankyrin repeat domain 29)	1	0.15	-0.34	0.21	0.57	inactive
C1orf35 (chromosome 1 open reading frame 35)	1	0.74	0.53	1.09	0.6	inactive
TEDC2-AS1 (TEDC2 antisense RNA 1)	1	0.95	1.06	0.77	1.02	inactive
XAGE5 (X antigen family member 5)	1	1.59	1.36	1.68	1.75	inactive
SFMBT1 (Scm like with four mbt domains 1)	1	-0.43	-0.33	-0.46	-0.5	inactive
MAPRE2 (microtubule associated protein RP/EB family member 2)	1	0.74	0.66	0.8	0.78	inactive
LOC200292 (retired record)	1	-1.83	-1.81	-1.59	-2.09	inactive
EXOSC6 (exosome component 6)	1	-0.81	-0.42	-0.78	-1.23	inactive
BAG1 (BAG cochaperone 1)	1	0.62	0.8	0.51	0.54	inactive
C5orf22 (chromosome 5 open reading frame 22)	1	0.69	0.7	0.37	1	inactive
SSX1 (SSX family member 1)	1	1.29	1.37	1.63	0.86	inactive
OR52A4P (olfactory receptor family 52 subfamily A member 4 pseudogene)	1	1.56	1.94	1.67	1.09	inactive
RPS15A (ribosomal protein S15a)	1	-1.7	-1.7	-1.83	-1.56	inactive
LINC00265 (long independently transcribed non-coding RNA 265)	1	0.05	-0.08	0.08	0.14	inactive
ATP11AUN (ATP11A upstream neighbor lncRNA)	1	0.02	0.32	0.15	-0.41	inactive
C6orf163 (chromosome 6 open reading frame 163)	1	0.47	0.19	0.76	0.98	inactive
ETF1 (eukaryotic translation termination factor 1)	1	-1.44	-1.56	-1.42	-1.34	inactive
GPRC5B (G protein-coupled receptor class C group 5 member B)	1	1.6	2.3	1.96	0.54	inactive

Copied from the list:
LINC00494 (long independently transcribed non-coding RNA 494), z-score, replicate A: 0.32
Entry of PHACTR4 (phosphatase and actin regulator 4) under “activity call”: inactive
EPYC (epiphycan), z-score, replicate A: 1.16
FN3K (fructosamine 3 kinase), z-score, replicate A: 0.25
RASSF1 (Ras association domain family member 1), activity call: inactive
Under “z-score, replicate A”, SFMBT1 (Scm like with four mbt domains 1) is entered as -0.33
